A mixed list of measured activities; the numbers were collected in NIAID ChemDB.

All rows: whole-cell or culture tests; organism: HIV-1; cells: CEM + CEM-SS; endpoint: EC50

Neighbouring rows are from separate reports.

structure	strain	changes	read by	value
O=[N+]([O-])c1ccccc1S(=O)(=O)c1ccccc1	IIIB			5.41 µM
O=S(=O)(c1ccccc1)c1ccccc1	IIIB		cytopathic effect / XTT	7 µM
O=[N+]([O-])c1ccccc1S(=O)(=O)Oc1ccc(Cl)cc1	RF		cytopathic effect / XTT	3.7 µM
O=c1c2ccccc2n2nnc3ccc(NCCCN4CCN(CCCNc5ccc6nnn7c8ccccc8c(=O)c5c67)CC4)c1c32	IIIB		cytopathic effect / XTT	0.0056 µM
O=c1[nH]c(=O)n(/C=C/P(=O)(O)O)cc1F	IIIB			>200 µM
CCc1c(Sc2ccccn2)n(COCc2ccccc2)c(=O)[nH]c1=O	4XAZT+Y181C (RT D67N K70R Y181C T215Y K219Q)	RT-D67N K70R Y181C T215Y K219Q	cytopathic effect / XTT	0.32 µM
CC(C)(C)NC(=O)c1c(C[C@@H](O)[C@H](Cc2ccccc2)NC(=O)[C@H](CC(N)=O)NC(=O)c2ccc3ccccc3n2)ccc2ccccc12	RF		cytopathic effect / XTT	0.19 µM
CCOC(=O)P(=O)(OCc1ccc(Cl)cc1)OCc1ccc(Cl)cc1	LAI		RT activity	>10 µM
Cc1cn([C@H]2C[C@H](N=[N+]=[N-])[C@@H](COC(=O)[C@@H]3OC(C)(C)O[C@@]34CC[C@H]3[C@@H]5CCC6=CC(=O)C=C[C@]6(C)[C@H]5[C@@H](O)C[C@@]34C)O2)c(=O)[nH]c1=O			cytopathic effect / XTT	0.065 µM
CN(C)C=Nc1ccn([C@H]2C[C@H](F)[C@@H](CO)O2)c(=O)n1	RF		cytopathic effect / XTT	1 µg/mL
CC(C)(C)NC(=O)c1c(CCC(O)Cc2ccc3ccccc3c2C(=O)NC(C)(C)C)ccc2ccccc12	RF		cytopathic effect / MTT	11 µM
O=C1N=S(=O)(c2ccccc2)c2ccccc2N1	IIIB		cytopathic effect / XTT	155 µM
O=[N+]([O-])c1ccccc1S(=O)(=O)c1ccccc1[N+](=O)[O-]	RF		cytopathic effect / XTT	0.89 µM
CCOP(=O)(/C=C\n1cc(I)c(=O)[nH]c1=O)OCC	IIIB			>200 µM
CCCc1cc(=O)oc2c3c(c4c(c12)OC(C)(C)C=C4)O[C@@H](C)[C@H](C)[C@@H]3O	NL4-3	RT-Y181C	XTT	0.02 µM
Nc1ncnc2c1ncn2/C=C\P(=O)(O)O	IIIB			>200 µM
CC(C)(C)NC(=O)[C@@H]1C[C@@H]2CCCC[C@@H]2CN1C[C@@H](O)[C@H](Cc1ccccc1)NC(=O)[C@H](CC(N)=O)NC(=O)c1ccc2ccccc2n1	RF		RT activity	0.008 µM
Cc1ccnc2c1NC(=O)c1cccnc1N2C1CC1	NL4-3	RT-K103N	cytopathic effect / XTT	>2 µM
C/C=C/CSc1cc(NC(=S)c2ccsc2C)ccc1Cl	NL4-3 (RT A98G)	RT-A98G	cytopathic effect / XTT	0.1 µM
C[C@@](O)(/C=C/[C@H]1CC=CC(=O)O1)[C@@H](C[C@@H](O)\C=C/C=C\C=C\CO)OP(=O)(O)O	RF		cytopathic effect / XTT	>18 µM
CCOP(=O)(/C=C\n1cnc2c(=O)[nH]c(NC(C)=O)nc21)OCC	IIIB			>200 µM
Cc1cn([C@H]2C[C@H](N=[N+]=[N-])[C@@H](CO)O2)c(=O)[nH]c1=O			cytopathic effect / XTT	0.007 µM
Cc1ccnc2c1NC(=O)c1cccnc1N2C1CC1	Calanolide A-resistant (RT T139I)	RT-T139I	XTT	0.03 µM
CCCCCCCCOC(=O)P(=O)(OCc1ccc(Cl)cc1)OCc1ccc(Cl)cc1	LAI		RT activity	>10 µM
CCOP(=O)(/C=C/n1cc(CO)c(=O)[nH]c1=O)OCC	IIIB			>200 µM
Cc1occc1C(=S)Nc1ccc(Cl)c(/C=N/OC(C)(C)C)c1	NL4-3 (RT M184V)	RT-M184V	cytopathic effect / XTT	0.1 µM
CCCCCCCCOC(=O)P(=O)(OC[C@H]1O[C@@H](n2cc(C)c(=O)[nH]c2=O)C[C@@H]1N=[N+]=[N-])OC[C@H]1O[C@@H](n2cc(C)c(=O)[nH]c2=O)C[C@@H]1N=[N+]=[N-]	LAI		RT activity	0.003 µM
Cc1cn([C@H]2C[C@H](N=[N+]=[N-])[C@@H](CO)O2)c(=O)[nH]c1=O	Nevirapine-resistant (RT Y181C)	RT-Y181C	XTT	0.03 µM
CC(=O)Nc1nc2c(ncn2/C=C/P(=O)(O)O)c(=O)[nH]1	IIIB			>200 µM
Cc1cn([C@H]2C[C@H](N=[N+]=[N-])[C@@H](CO)O2)c(=O)[nH]c1=O	IIIB	RT-V90I T139I P225S	cytopathic effect / XTT	0.01 µM
O=C(O)c1c[nH]c2c(ccc3[nH]cc(C(=O)O)c(=O)c32)c1=O	RF		cytopathic effect / XTT	>200 µM
O=S(=O)(c1ccccc1)c1ccccn1	RF		cytopathic effect / XTT	68 µM
CCOP(=O)(/C=C\n1ccc(N)nc1=O)OCC	IIIB			>200 µM
O=S1(c2ccccc2)=NC(=S)Nc2ccccc21	LAV		cytopathic effect / XTT	0.95 µM
Cc1ccc(C[C@@H](O)[C@H](Cc2ccccc2)NC(=O)[C@H](CC(N)=O)NC(=O)c2ccc3ccccc3n2)c(C(=O)NC(C)(C)C)c1	RF		cytopathic effect / XTT	0.02 µM
CCCc1cc(=O)oc2c3c(c4c(c12)OC(C)(C)C=C4)O[C@H](C)[C@@H](C)[C@@H]3O	Costatolide-resistant (RT Y188H)	RT-Y188H	XTT	>27 µM
CCc1c(C(=O)c2cc(C)cc(C)c2)n(CC2CC=CC2)c(=O)[nH]c1=O	NL4-3	RT-L100I	cytopathic effect / XTT	0.0002 µM
CCOP(=O)(/C=C/n1ccc(=O)[nH]c1=O)OCC	IIIB			>200 µM
CC(C)(C)C(=O)SCCOC(=O)P(=O)(O)OCCSC(=O)C(C)(C)C	LAI		RT activity	27 µM

The first 5 rows once more:

structure | strain | changes | read by | value
O=[N+]([O-])c1ccccc1S(=O)(=O)c1ccccc1 | IIIB |  |  | 5.41 µM
O=S(=O)(c1ccccc1)c1ccccc1 | IIIB |  | cytopathic effect / XTT | 7 µM
O=[N+]([O-])c1ccccc1S(=O)(=O)Oc1ccc(Cl)cc1 | RF |  | cytopathic effect / XTT | 3.7 µM
O=c1c2ccccc2n2nnc3ccc(NCCCN4CCN(CCCNc5ccc6nnn7c8ccccc8c(=O)c5c67)CC4)c1c32 | IIIB |  | cytopathic effect / XTT | 0.0056 µM
O=c1[nH]c(=O)n(/C=C/P(=O)(O)O)cc1F | IIIB |  |  | >200 µM

ECn: concentration that inhibits the pathogen or its effect by n%. Blank or dashed fields: not listed here.